Laboratory results published in paper PMC8175350, “Drug repurposing screens identify chemical entities for the development of COVID-19 interventions” (Nature Communications, 2021).
Counter-ions that a name gives are not always drawn. Like-named read-outs stand apart in the source and are kept apart here.

Columns and labels:
[1] = test system: SARS-CoV-2; assay type: cell-based
[2] = test system: SARS-CoV-2; assay type: cell-based; remark: listed apart in the source
[3] = selectivity index, uninfected Calu-3 CC50 / Calu-3 SARS-CoV-2 EC50
[4] = selectivity index, uninfected HeLa-ACE2 CC50 vs HeLa-ACE2 SARS-CoV-2 EC50
[5] = selectivity index, uninfected Calu-3 CC50 vs Calu-3 SARS-CoV-2 EC50
[6] = selectivity index, uninfected HeLa-ACE2 CC50 / HeLa-ACE2 SARS-CoV-2 EC50

CCc1ccc(C2=CC(C)(C)Sc3ccc(C#Cc4ccc(C(=O)O)cc4)cc32)cc1 [AGN-194310]
Calu-3 SI [1, 3]: > 50.05

CC/C(=C(/c1ccc(/C=C/C(=O)O)cc1)c1ccc2[nH]ncc2c1)c1ccc(F)cc1Cl [ARN-810]
HeLa-ACE2 SI [2, 4]: 1.14
Calu-3 SI [1, 5]: > 21.61

CCOc1ccc(Cc2nc3cc(N(C)S(=O)(=O)c4cccs4)ccc3n2CC2CCCCC2)nc1 [AZ-11713908]
HeLa-ACE2 SI [2]: 3.44
Calu-3 SI ([1]; ratio CC50 / EC50): > 8.45

CCCCCC[C@H]1C(=O)O[C@H](C)[C@H](NC(=O)c2cccc(NC=O)c2O)C(=O)O[C@@H](C)[C@@H]1OC(=O)CC(C)C [Antimycin A]
Calu-3 SI ([1]; ratio CC50 / EC50): > 20.81

Cc1cccc(/C=N/Nc2cc(N3CCOCC3)nc(OCCc3ccccn3)n2)c1 [Apilimod - control]
HeLa-ACE2 SI ([2]; selectivity index, uninfected HeLa-ACE2 CC50 / SARS-CoV-2 EC50): > 1018.85

C=Cc1cc(C(=O)Nc2ccc(C(=N)N)cc2)c(-c2ccc(C(=O)NCC3CC3)nc2C(=O)O)cc1OC [Avoralstat]
Calu-3 SI ([1]; ratio CC50 / EC50): > 77.16

O=c1[nH]c2ccc(C(F)(F)F)cc2c(-c2cc(Cl)ccc2O)c1CCO [BMS-223131]
HeLa-ACE2 SI [2, 4]: 2.23
Calu-3 SI [1, 5]: > 5.81

COC(=O)[C@]12CCC(C)(C)C[C@H]1[C@H]1C(=O)C=C3[C@@]4(C)C=C(C#N)C(=O)C(C)(C)[C@@H]4CC[C@@]3(C)[C@]1(C)CC2 [Bardoxolone methyl]
HeLa-ACE2 SI [2, 6]: 5.73
Calu-3 SI [1, 3]: 38.51

COC(=O)[C@@]12OC[C@]34[C@H]([C@@H](O)[C@@H]1O)[C@@]1(C)CC(=O)C(O)=C(C)[C@@H]1C[C@H]3OC(=O)[C@H](OC(=O)/C=C(\C)C(C)C)[C@@H]24 [Bruceantin]
HeLa-ACE2 SI [2]: < 20.18
Calu-3 SI ([1]; ratio CC50 / EC50): 49.86

CN(C)C(=O)COC(=O)Cc1ccc(OC(=O)c2ccc(NC(=N)N)cc2)cc1 [Camostat mesylate]
Calu-3 SI [1, 3]: > 556.36

CC[C@H]1CN2CCc3cc(OC)c(OC)cc3[C@@H]2C[C@@H]1C[C@H]1NCCc2cc(O)c(OC)cc21 [Cephaeline]
HeLa-ACE2 SI [2]: 12.66
Calu-3 SI ([1]; ratio CC50 / EC50): > 34.90

COCc1c(C(C)C)nc(C(C)C)c(/C=C/[C@@H](O)C[C@@H](O)CC(=O)O)c1-c1ccc(F)cc1 [Cerivastatin sodium]
HeLa-ACE2 SI [2, 6]: 0.0321
Calu-3 SI [1, 3]: > 85.72

C[C@@H]1C[C@@H]([C@H](O)CC2CC(=O)NC(=O)C2)C(=O)[C@@H](C)C1 [Cycloheximide]
HeLa-ACE2 SI [2]: 2.32
Calu-3 SI ([1]; ratio CC50 / EC50): > 12.51

O=C(Nc1ccc(Cl)c(S(=O)(=O)N2CCNCC2)c1O)Nc1cccc(F)c1Cl [Elubrixin tosylate]
Calu-3 SI [1, 5]: > 4.28

CSc1ccc(CN2CCCC(Nc3ccc4[nH]ncc4c3)C2)cc1 (stereo not shown) [INS-117548]
Calu-3 SI [1, 5]: > 8.42

N=C(N)c1ccc2cc(OC(=O)c3ccc(N=C(N)N)cc3)ccc2c1 [Nafamostat mesylate]
Calu-3 SI ([1]; ratio CC50 / EC50): > 1230.37

CC[C@@H]1/C=C/C=C/C[C@H](C)[C@@H](O)[C@](C)(O)C(=O)[C@H](C)[C@@H](O)[C@H](C)C(=O)[C@H](C)[C@@H](O)[C@H](C)/C=C/C(=O)O[C@H]2[C@@H](C)[C@@H](CC1)O[C@]1(O[C@H](C[C@H](C)O)[C@H](C)CC1=O)[C@@H]2C [Oligomycin B]
Calu-3 SI ([1]; ratio CC50 / EC50): > 4376.07

N=C(N)Nc1ccc(C(=O)Oc2ccc(S(N)(=O)=O)cc2)cc1 [Ono-3307]
Calu-3 SI [1, 5]: > 18.64

CC(C)(C)c1ccc(CSc2cnn(C(C)(C)C)c(=O)c2Cl)cc1 [Pyridaben]
Calu-3 SI ([1]; ratio CC50 / EC50): > 43.94

CC(=O)N1C[C@H](O)C[C@H]1C(=O)N[C@@H](CCCNC(=N)N)C(=O)c1nc2ccccc2s1 [RWJ-56423]
Calu-3 SI [1, 5]: > 24.33

N=C(N)Nc1ncc(Cl)c2ccc(-c3cccc(C(=O)O)c3)cc12 [UK-356202]
Calu-3 SI [1, 5]: > 15.59

CN(C)C(C(=O)Nc1ccc2c(=O)[nH]ccc2c1)c1ccsc1 (stereo not shown) [Verosudil]
Calu-3 SI [1, 5]: > 5.39

CC(=N)N1CCC(Oc2ccc(N(Cc3ccc4ccc(C(=N)N)cc4c3)S(=O)(=O)CC(=O)O)cc2)CC1 [YM 60828]
Calu-3 SI [1, 5]: > 9.40

Antimycin A3
Calu-3 SI ([1]; ratio CC50 / EC50): > 110.21

Deazaneplanocin A
Calu-3 SI ([1]; ratio CC50 / EC50): > 182.13

Mitoguazone
Calu-3 SI ([1]; ratio CC50 / EC50): > 66.95
